Reference: patent publication US20100209933
Construct, isoform or probe ends are uncertain for at least one entry. Protein sequences can lack the tags named with them.

Legend:
[1] = target: T1, MBP-p19-CBD fusion protein (Carnation Italian ringspot virus) (UniProt Q66104); test: pull-down; conditions: chitin magnetic beads, purified recombinant protein, protein details: N-terminal MBP, C-terminal chitin-binding domain, label: 5' 32P on probe
T1 sequence: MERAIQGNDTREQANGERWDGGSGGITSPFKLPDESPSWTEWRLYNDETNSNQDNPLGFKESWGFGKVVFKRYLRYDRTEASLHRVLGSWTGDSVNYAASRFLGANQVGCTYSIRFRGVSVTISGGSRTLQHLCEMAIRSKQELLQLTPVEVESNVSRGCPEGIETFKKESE

[2] = target: T1, MBP-p19-CBD fusion protein (Carnation Italian ringspot virus); test: EMSA; conditions: 20 mM Tris, 100 mM NaCl, 1 mM EDTA, 1 mM TCEP, pH 7; room temperature; purified recombinant protein; protein details: N-terminal MBP, C-terminal chitin-binding domain; label: FAM (p113), non-radioactive 5' P (p114); variant of miR122a/RNA probe duplex

UGGAGUGUGACAAUGGUGUUUG / AACACCAUUGUCACACUCCAUA [miR122a/RNA probe duplex]
binding result ([1]; 20 mM Tris, 100 mM NaCl, 1 mM EDTA, 1 mM TCEP, pH 7, BSA, room temperature): binds

UGAGGUAGUAGGUUGUAUAGUU / CUAUACAACCUACUACCUCAAA [let-7a/RNA probe duplex]
binding result ([1]; same buffer, JURKAT total RNA): binds

UGGAGUGUGACAAUGGUGUUUG / AACACCAUUGUCACACUCCAUA [miR122a/polyA-tail RNA probe]
binding result [2]: binds
